{"source": "PubChem BioAssay AID504761 (Drosophila RNAi Screening Center, 2011)", "purpose": "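Fly genes whose silencing reduces dengue virus type 2 infection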 (primary screen)", "cell system": "D.Mel-2 cells from Drosophila", "reagent": "long dsRNA against Drosophila genes", "challenge": "infection with dengue virus type 2; dose and infection time not stated", "measured": "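Per well on two replicate plates, imaging gave the percent of cells positive for viral envelope protein, ranked by infection, and a nuclear count of cells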", "direction": "infection score: higher = more virus-infected cells; cell count: higher = more cells in the well", "active means": "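Low infection ranks in the two replicates (chance level up to 0.065) followed by a retest with a 1.5-fold or larger significant decrease, p below 0.05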", "calls": "active = confirmed: knock-down lowers infection; inactive = not picked or not confirmed", "note": "The screen tested about 22,000 reagents; below is an unselected part of those with a known target gene and a result. In the full data, 116 (0.52%) are marked active. 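Calls depend on retest data that are not deposited; infection was ranked per plate without normalising between plates; the unit of the infection score is not given.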 Raw values vary from plate to plate and are shown uncorrected. Entries without a mark were called inactive. The numbers tell different reagents against one gene apart. Names joined by + are all predicted targets of the reagent. Not all columns of the deposit are shown. The record does not give: the amount of reagent, the time to read-out."}
{"predicted target":"Cyp6a15Psi","reagent no.":1,"infection score, replicate 1":18,"cell count, replicate 1":5961}
{"predicted target":"Cyp6a15Psi","reagent no.":2,"infection score, replicate 1":13.3,"cell count, replicate 1":5490}
{"predicted target":"CG31253 + CG31131","reagent no.":1,"infection score, replicate 1":9,"cell count, replicate 1":4831}
{"predicted target":"Pp1alpha-96A","reagent no.":1,"infection score, replicate 1":2.02,"cell count, replicate 1":7223}
{"predicted target":"Pp1alpha-96A","reagent no.":2,"infection score, replicate 1":0.78,"cell count, replicate 1":5733}
{"predicted target":"Pp1alpha-96A","reagent no.":3,"infection score, replicate 1":3.86,"cell count, replicate 1":5849}
{"predicted target":"CG6118","reagent no.":1,"infection score, replicate 1":0.94,"cell count, replicate 1":6147}
{"predicted target":"CG6118","reagent no.":2,"infection score, replicate 1":10.8,"cell count, replicate 1":6382}
{"predicted target":"bou","reagent no.":1,"infection score, replicate 1":1.74,"cell count, replicate 1":6191}
{"predicted target":"Bro","reagent no.":1,"infection score, replicate 1":2.82,"cell count, replicate 1":5992}
{"predicted target":"CG42446 + CG17931","reagent no.":1,"infection score, replicate 1":13.3,"cell count, replicate 1":2292}
{"predicted target":"CG3548","reagent no.":1,"infection score, replicate 1":32.8,"cell count, replicate 1":6062}
{"predicted target":"CG3548","reagent no.":2,"infection score, replicate 1":14.3,"cell count, replicate 1":6326}
